Assay: in vitro
Details: human, liver microsomes

SMILES: CC(C)NCC(O)COc1cccc2ccccc12 (stereo unspecified) [PROPRANOLOL]
- half-life: 2.32 h

Source: ChEMBL document CHEMBL6071156 (Eur J Med Chem, 2024)
